# Measurements reported in PubChem BioAssay AID624099 (ICCB-Longwood, 2012)
# Aim: 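Knock-downs relieving repression by E2 of an HPV18 LCR luciferase reporter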 (primary screen)
# System: human C33A cervical carcinoma cells (HPV-negative) stably expressing BPV1 E2 and an HPV18 LCR luciferase reporter
# Reagents: siRNA pool against human genes, 40 nM
# Duration: 72 h
# Measurement: 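HPV18 LCR reporter light per well, converted to plate-wise z-scores that exclude control wells, and averaged over triplicate plates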
# Direction: mean z-score and z-score: higher = stronger reporter signal, weaker E2 silencing
# Active means: 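Hit if mean z-score reaches 2 and two or more of three replicate z-scores also reach 2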
# The whole screen tested about 21,000 reagents; this is a random part of them. Of all reagents, 497 (2.4%) got an active call. 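Higher z means weaker E2 silencing; only reporter increases were scored, and knock-downs that hurt cell survival may mask genuine repressor factors.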 Unmarked entries are inactive.
target,PubChem SID,mean z-score,"z-score, replicate A","z-score, replicate B","z-score, replicate C"
VCP (valosin containing protein),SID134313584,-1.14,-1.18,-0.89,-1.36
"RBSN (rabenosyn, RAB effector)",SID134318224,0.28,0.61,0.34,-0.12
SPOPL (speckle type BTB/POZ protein like),SID134327225,0.55,0.51,0.66,0.49
CYSLTR1 (cysteinyl leukotriene receptor 1),SID134310922,-0.06,-0.05,-0.12,-0.01
USP18 (ubiquitin specific peptidase 18),SID134310333,0.51,0.48,0.67,0.39
RNF138 (ring finger protein 138),SID134312116,-0.94,-0.47,-1.27,-1.08
SHROOM1 (shroom family member 1),SID134319393,0.51,0.71,0.55,0.28
LINC00575 (long independently transcribed non-coding RNA 575),SID134329255,1.97,1.79,2.15,1.98
TCL6 (T cell leukemia/lymphoma 6),SID134316786,0.03,-0.39,0.17,0.32
TRIM25 (tripartite motif containing 25),SID134311904,0.81,0.66,0.81,0.97
HAUS6 (HAUS augmin like complex subunit 6),SID134322234,-0.92,-1.03,-0.97,-0.77
DOCK3 (dedicator of cytokinesis 3),SID134316956,-0.64,-0.59,-0.7,-0.64
AGBL2 (AGBL carboxypeptidase 2),SID134317186,-0.41,-0.49,-0.28,-0.48
CACNA2D3,SID134324847,-0.38,0.06,-0.75,-0.45
NDUFV3 (NADH:ubiquinone oxidoreductase subunit V3),SID134320358,-0.28,-0.07,-0.72,-0.06
LAMC1 (laminin subunit gamma 1),SID134316035,0.06,0.36,-0.19,0
GCAT (glycine C-acetyltransferase),SID134314279,-1.3,-1.25,-1.23,-1.43
DNTT (DNA nucleotidylexotransferase),SID134314426,-1.4,-0.79,-1.59,-1.81
CMIP (c-Maf inducing protein),SID134318750,0.5,0.43,0.67,0.4
"LRIT3 (leucine rich repeat, Ig-like and transmembrane domains 3)",SID134326838,0,-0.24,0,0.23
CCDC47 (coiled-coil domain containing 47),SID134315211,0.24,0.29,0.29,0.15
DAB2IP (DAB2 interacting protein),SID134313132,1,0.93,1.18,0.89
ENDOG (endonuclease G),SID134310460,1.29,1.06,1.65,1.16
RSPH10B (radial spoke head 10 homolog B),SID134322277,0.79,0.65,0.94,0.48
LRRC39 (leucine rich repeat containing 39),SID134320083,-0.57,-0.4,-0.85,-0.44
NPY4R (neuropeptide Y receptor Y4),SID134311139,-0.28,-0.11,-0.35,-0.38
LDHAL6B (lactate dehydrogenase A like 6B),SID134313750,2.19 (active),1.83,2.1,2.63
PLCE1 (phospholipase C epsilon 1),SID134310310,2.26 (active),2.47,2.29,2.02
TSPAN31 (tetraspanin 31),SID134310039,-0.72,-0.88,-0.74,-0.55
LPAR2 (lysophosphatidic acid receptor 2),SID134310546,-0.77,-1.05,-0.62,-0.65
PCNX4 (pecanex 4),SID134320731,0.41,0.51,0.37,0.35
APOBEC3D (apolipoprotein B mRNA editing enzyme catalytic subunit 3D),SID134329746,-0.02,0.13,0.08,-0.25
NFE2L1 (NFE2 like bZIP transcription factor 1),SID134323502,0.09,0.03,0.17,0.07
HOXB3 (homeobox B3),SID134321470,0.17,0.37,0.01,0.14
CARNS1 (carnosine synthase 1),SID134326618,-1.47,-0.73,-1.2,-2.47
ARSH (arylsulfatase family member H),SID134326233,-1.15,-1.27,-1.09,-1.09
P2RX2 (purinergic receptor P2X 2),SID134311701,0.93,0.93,0.94,0.92
LOC130839 (retired record),SID134325484,0.19,0.27,0.02,0.29
RPL13 (ribosomal protein L13),SID134317924,-1.43,-1.38,-1.42,-1.5
SNRPA1 (small nuclear ribonucleoprotein polypeptide A'),SID134323356,-0.26,-0.19,-0.41,-0.17
ATG5 (autophagy related 5),SID134310413,0.63,0.54,0.52,0.83
DDX4 (DEAD-box helicase 4),SID134317154,-0.26,-0.46,-0.34,0.01
"TC2N (tandem C2 domains, nuclear)",SID134322164,-0.54,-0.5,-0.61,-0.51
SRD5A2 (steroid 5 alpha-reductase 2),SID134310319,-0.67,-0.75,-0.95,-0.29
COMMD1 (copper metabolism domain containing 1),SID134312333,-1.22,-0.85,-1.5,-1.31
OGFRP1 (opioid growth factor receptor pseudogene 1),SID134329111,0.16,0.36,0.67,-0.56
SLCO4A1,SID134312483,2.29 (active),2.19,2.38,2.31
CCDC3 (coiled-coil domain containing 3),SID134322772,-0.41,-0.36,-0.43,-0.43
IDNK (IDNK gluconokinase),SID134329751,-0.65,-0.56,-0.58,-0.8
LRRC75A (leucine rich repeat containing 75A),SID134329543,-0.28,-0.47,0.09,-0.45
TRPM5,SID134311840,-0.1,0.23,-0.31,-0.23
IL20 (interleukin 20),SID134312902,0,-0.27,0.19,0.08
AATF (apoptosis antagonizing transcription factor),SID134310412,-0.7,-0.47,-0.91,-0.73
LOC113386 (retired record),SID134320556,2 (active),1.91,2.02,2.06
LOC387901 (retired record),SID134328427,0.04,-0.15,0,0.28
ACTN4 (actinin alpha 4),SID134316294,-1.24,-0.97,-1.31,-1.46
LAMB4 (laminin subunit beta 4),SID134326358,0.19,-0.15,0.21,0.53
ARHGAP5 (Rho GTPase activating protein 5),SID134314311,-0.27,-0.18,-0.33,-0.29
CRTC1 (CREB regulated transcription coactivator 1),SID134318214,1.49,1.67,1.18,1.61
BLVRA (biliverdin reductase A),SID134310113,0.22,0.27,0.23,0.16
NQO1 (NAD(P)H quinone dehydrogenase 1),SID134310760,0.6,0.3,0.6,0.91
TPD52L2 (TPD52 like 2),SID134323349,0.18,0.17,0.11,0.27
DTNB (dystrobrevin beta),SID134324955,-0.91,-1.05,-0.75,-0.91
KMT5C (lysine methyltransferase 5C),SID134322471,-1.1,-1.11,-1.09,-1.09
LOC389767 (retired record),SID134328039,-0.26,-0.38,0.09,-0.5
ANKRD28 (ankyrin repeat domain 28),SID134325699,0.6,0.43,0.5,0.88
POGZ (pogo transposable element derived with ZNF domain),SID134312079,0.39,0.57,0.12,0.47
ALOX15 (arachidonate 15-lipoxygenase),SID134310087,-0.42,-0.58,-0.5,-0.17
CDH16 (cadherin 16),SID134316145,-0.8,-0.92,-0.77,-0.71
GLB1L3 (galactosidase beta 1 like 3),SID134319611,-0.73,-0.47,-0.84,-0.87
GLB1L3 (galactosidase beta 1 like 3),SID134322184,-0.22,-0.07,-0.08,-0.51
"SIGLEC17P (sialic acid binding Ig like lectin 17, pseudogene)",SID134325837,-0.39,-0.38,-0.15,-0.66
SLC2A12,SID134312558,-0.01,-0.06,-0.18,0.21

Laid out differently: entries from further up
{"target":"TSPAN31 (tetraspanin 31)","PubChem SID":"SID134310039","mean z-score":-0.72,"z-score, replicate A":-0.88,"z-score, replicate B":-0.74,"z-score, replicate C":-0.55}
{"target":"LPAR2 (lysophosphatidic acid receptor 2)","PubChem SID":"SID134310546","mean z-score":-0.77,"z-score, replicate A":-1.05,"z-score, replicate B":-0.62,"z-score, replicate C":-0.65}
{"target":"PCNX4 (pecanex 4)","PubChem SID":"SID134320731","mean z-score":0.41,"z-score, replicate A":0.51,"z-score, replicate B":0.37,"z-score, replicate C":0.35}
{"target":"APOBEC3D (apolipoprotein B mRNA editing enzyme catalytic subunit 3D)","PubChem SID":"SID134329746","mean z-score":-0.02,"z-score, replicate A":0.13,"z-score, replicate B":0.08,"z-score, replicate C":-0.25}
{"target":"NFE2L1 (NFE2 like bZIP transcription factor 1)","PubChem SID":"SID134323502","mean z-score":0.09,"z-score, replicate A":0.03,"z-score, replicate B":0.17,"z-score, replicate C":0.07}
{"target":"HOXB3 (homeobox B3)","PubChem SID":"SID134321470","mean z-score":0.17,"z-score, replicate A":0.37,"z-score, replicate B":0.01,"z-score, replicate C":0.14}
{"target":"CARNS1 (carnosine synthase 1)","PubChem SID":"SID134326618","mean z-score":-1.47,"z-score, replicate A":-0.73,"z-score, replicate B":-1.2,"z-score, replicate C":-2.47}
{"target":"ARSH (arylsulfatase family member H)","PubChem SID":"SID134326233","mean z-score":-1.15,"z-score, replicate A":-1.27,"z-score, replicate B":-1.09,"z-score, replicate C":-1.09}
{"target":"P2RX2 (purinergic receptor P2X 2)","PubChem SID":"SID134311701","mean z-score":0.93,"z-score, replicate A":0.93,"z-score, replicate B":0.94,"z-score, replicate C":0.92}
{"target":"LOC130839 (retired record)","PubChem SID":"SID134325484","mean z-score":0.19,"z-score, replicate A":0.27,"z-score, replicate B":0.02,"z-score, replicate C":0.29}
{"target":"RPL13 (ribosomal protein L13)","PubChem SID":"SID134317924","mean z-score":-1.43,"z-score, replicate A":-1.38,"z-score, replicate B":-1.42,"z-score, replicate C":-1.5}
